Results: EP4670733A1, “METHODS FOR PREPARING VIRAL PROTEINS AND USES THEREOF” (priority 2024, dated 2025)

How the values were obtained:
[1] = tested on: A/H1N1/Michigan/45/15 X-275 (H1N1) virus strain; assay: Splitting procedure, HA content by single radial immunodiffusion (SRID) assay; design: species or system influenza virus
[2] = tested on: A/H1N1/Michigan/45/15 X-275 (H1N1) virus strain; assay: Splitting procedure, protein content (chemiluminescence or colorimetric assay) and SRID/protein ratio; design: species or system influenza virus; settings: detergent at target concentration of Table 1, 22°C, 1 hour; FIG. 1
[3] = tested on: A/H1N1/Michigan/45/15 X-275 (H1N1) virus strain; assay: Particle size by dynamic light scattering (DLS); assay type: physicochemical, influenza virus
[4] = tested on: A/H1N1/Michigan/45/15 X-275 (H1N1) virus strain; design: species or system influenza virus
[5] = compared with Triton X100 positive control, detergent at target concentration of Table 1, 22°C, 1 hour, 225 rpm, FIG. 1
[6] = Sample E4 (downstream process after splitting)

Row | Compound | SRID titer ([1]; at a concentration of more than 0.45% (v/v), Prediction Profiler of JMP) | SRID titer [1, 5] | SRID/Protein ratio [2] | particle size distribution ([3]; Sample E2, compared to the No Detergent control, FIG. 2A-2F) | particle size, first population ([3]; drug substance, Sample E6) | particle size, second population ([3]; drug substance, Sample E6) | particle size distribution profile (DLS) ([3]; drug substance, Sample E6, […]) | Infectious titers on eggs ([4]; Sample E0 (before splitting)) | Infectious titers on eggs [4, 6]
1 | C11-15-secondary alcohol ethoxylates | more than 1000 µg/mL | equivalent to that of the positive control | 58% | reduced the particle size distribution after splitting | < 100 nm | > 200 nm | comparable profile as the drug substance obtained using Triton X-100 | 11.00 log10CCID50/mL | 4.60 log10CCID50/mL
2 | CCCCCCCCCCCCCC[N+](C)(C)[O-] [TDAO] | – | equivalent to that of the positive control | – | – | – | – | – | – | –
3 | CCCCCCCCCCCC[N+](C)(C)[O-] [LDAO] | – | equivalent to that of the positive control | – | – | – | – | – | – | –
4 | Triton X-100 [reference compound] | – | – | 55% | – | – | – | – | 11.05 log10CCID50/mL | 4.09 log10CCID50/mL

Like-named read-outs stand apart in the source and are kept apart here.
